Key:
[1] = system: Candida albicans YEM15 (over-expressing the CDR1 and CDR2 pumps); experiment: Checkerboard / broth microdilution assay, potentiation of fluconazole vs. C. albicans; settings: for MIC: Candida albicans, 48 h; for MPC8 = concentration of efflux pump inhibitor necessary to reduce the fluconazole MIC 8-fold: in combination with fluconazole, strain YEM15
[2] = system: C. glabrata YEM19 (over-expressing the CgCDR1 and CgCDR2 pumps); experiment: Checkerboard / broth microdilution assay, potentiation of fluconazole vs. C. glabrata; settings: for MIC: Nakaseomyces glabratus, 48 h; for MPC8: in combination with fluconazole, strain YEM19

SMILES | MIC [1] [µg/mL] | MPC8 = concentration of efflux pump inhibitor necessary to reduce the fluconazole MIC 8-fold [1] | MIC [2] [µg/mL] | MPC8 [2] [µg/mL]
COc1ccc(N(C(=O)Nc2ccc(F)cc2)C(C)c2nc3ccccc3c(=O)n2N2CCN(C(=O)OCCN3CCOCC3)CC2)c(OC)c1 (stereo not shown) [Compound 101] | > 32 | 0.5 µg/mL | > 32 | 0.125
COc1ccc(N(C(=O)Nc2ccc(F)cc2)C(C)c2nc3ccccc3c(=O)n2N2CCN(C(=O)OCCN3CCN(C)CC3)CC2)c(OC)c1 (stereo not shown) [Compound 102] | > 32 | 16 µg/mL | > 32 | 0.5
COc1ccc(N(C(=O)Nc2ccc(F)cc2)C(C)c2nc3ccccc3c(=O)n2N2CCN(C(=O)OCCN3CCSCC3)CC2)c(OC)c1 (stereo not shown) [Compound 103] | > 32 | 1 µg/mL | > 32 | 0.25
COc1ccc(N(C(=O)Nc2ccc(F)cc2)C(C)c2nc3ccccc3c(=O)n2N2CCN(C(=O)OCCC#N)CC2)c(OC)c1 (stereo not shown) [Compound 104] | > 32 | 0.25 µg/mL | > 32 | 0.25
COc1ccc(N(C(=O)Nc2ccc(F)cc2)C(C)c2nc3ccccc3c(=O)n2N2CCN(C(=O)OCCSc3nncs3)CC2)c(OC)c1 (stereo not shown) [Compound 105] | > 32 | 0.5 µg/mL | > 32 | 0.25
COc1ccc(N(C(=O)Nc2ccc(F)cc2)C(C)c2nc3ccccc3c(=O)n2N2CCN(C(=O)OCCSc3ncc[nH]3)CC2)c(OC)c1 (stereo not shown) [Compound 106] | > 32 | 2 µg/mL | > 32 | 0.25
COc1ccc(N(C(=O)Nc2ccc(F)cc2)C(C)c2nc3ccccc3c(=O)n2N2CCN(C(=O)OCCSc3nccn3C)CC2)c(OC)c1 (stereo not shown) [Compound 107] | > 32 | 2 µg/mL | > 32 | 0.25
COc1ccc(N(C(=O)Nc2ccc(F)cc2)C(C)c2nc3ccccc3c(=O)n2N2CCN(C(=O)OCCN3C(=O)CCC3=O)CC2)c(OC)c1 (stereo not shown) [Compound 108] | > 32 | 2 µg/mL | > 32 | 0.5
COc1ccc(N(C(=O)Nc2ccc(F)cc2)C(C)c2nc3ccccc3c(=O)n2N2CCN(C(=O)OCCNc3nncs3)CC2)c(OC)c1 (stereo not shown) [Compound 109] | > 32 | 1 µg/mL | > 32 | 0.5
COc1ccc(N(C(=O)Nc2ccc(F)cc2)C(C)c2nc3ccccc3c(=O)n2N2CCN(CC(N)=O)CC2)c(OC)c1 (stereo not shown) [Compound 111] | > 32 | 1 µg/mL | > 32 | 4
COc1ccc(N(C(=O)Nc2ccc(F)cc2)C(C)c2nc3ccccc3c(=O)n2N2CCN(CC(=O)N3CCOCC3)CC2)c(OC)c1 (stereo not shown) [Compound 112] | > 32 | 0.25 µg/mL | > 32 | 0.25
COc1ccc(N(C(=O)Nc2ccc(F)cc2)C(C)c2nc3ccccc3c(=O)n2N2CCN(CC(=O)N3CCOCC3)CC2)cc1 (stereo not shown) [Compound 114] | > 32 | 2 µg/mL | > 32 | 4
COc1ccc(N(C(=O)Nc2cccc(Cl)c2)C(C)c2nc3ccccc3c(=O)n2N2CCN(CC(=O)N3CCOCC3)CC2)c(OC)c1 (stereo not shown) [Compound 115] | > 32 | 1 µg/mL | > 32 | 2
COc1ccc(N(C(=O)Nc2ccccc2)C(C)c2nc3ccccc3c(=O)n2N2CCN(CC(=O)N3CCOCC3)CC2)c(OC)c1 (stereo not shown) [Compound 116] | > 32 | 0.5 µg/mL | > 32 | 1
COc1ccc(N(C(=O)Nc2ccc(F)cc2)C(C)c2nc3ccccc3c(=O)n2N2CCN(CC(=O)N3CCCC3)CC2)c(OC)c1 (stereo not shown) [Compound 117] | > 32 | 0.125 µg/mL | > 32 | 0.5
COc1ccc(N(C(=O)Nc2ccc(F)cc2)C(C)c2nc3ccccc3c(=O)n2N2CCN(CC(=O)N3CCCCC3)CC2)c(OC)c1 (stereo not shown) [Compound 118] | > 32 | 0.0625 µg/mL | > 32 | 0.5
COc1ccc(N(C(=O)Nc2ccc(F)cc2)C(C)c2nc3ccccc3c(=O)n2N2CCN(CC(=O)N3CCSCC3)CC2)c(OC)c1 (stereo not shown) [Compound 119] | > 32 | 0.0625 µg/mL | > 32 | 0.25

SMILES | MIC [1] [µg/mL] | MPC8 = concentration of efflux pump inhibitor necessary to reduce the fluconazole MIC 8-fold [1] | MIC [2] [µg/mL] | MPC8 [2] [µg/mL]
COc1ccc(N(C(=O)Nc2ccc(F)cc2)C(C)c2nc3ccccc3c(=O)n2N2CCN(CC(=O)N3CCN(C)CC3)CC2)c(OC)c1 (stereo not shown) [Compound 120] | > 32 | 8 µg/mL | > 32 | 1
COc1ccc(N(C(=O)Nc2ccc(F)cc2)C(C)c2nc3ccccc3c(=O)n2N2CCN(CC(=O)N(C)C)CC2)c(OC)c1 (stereo not shown) [Compound 121] | > 32 | 0.125 µg/mL | > 32 | 1
COc1ccc(N(C(=O)Nc2ccc(F)cc2)C(C)c2nc3ccc(F)cc3c(=O)n2N2CCN(CC(=O)N3CCOCC3)CC2)c(OC)c1 (stereo not shown) [Compound 122] | > 32 | 0.125 µg/mL | 32 | 0.5
COc1ccc(N(C(=O)Nc2cccc(Cl)c2)C(C)c2nc3ccccc3c(=O)n2N2CCNCC2)c(OC)c1 (stereo not shown) [Compound 123] | > 32 | 16 µg/mL | > 32 | 32
COc1ccc(N(C(=O)Nc2cccc(Cl)c2)C(C)c2nc3ccccc3c(=O)n2N2CCN(S(C)(=O)=O)CC2)c(OC)c1 (stereo not shown) [Compound 124] | > 32 | ≦0.03 μg/ml | > 32 | 2
COc1ccc(N(C(=O)Nc2ccc(F)cc2)C(C)c2nc3ccc(F)cc3c(=O)n2N2CCN(S(C)(=O)=O)CC2)c(OC)c1 (stereo not shown) [Compound 125] | > 32 | ≦0.03 μg/ml | > 32 | 1
COc1ccc(N(C(=O)Nc2ccccc2)C(C)c2nc3ccccc3c(=O)n2N2CCN(S(C)(=O)=O)CC2)c(OC)c1 (stereo not shown) [Compound 126] | > 32 | 0.125 µg/mL | > 32 | 4
COc1ccc(N(C(=O)Nc2ccccc2)C(C)c2nc3ccccc3c(=O)n2N2CCNCC2)c(OC)c1 (stereo not shown) [Compound 128] | > 32 | 32 µg/mL | > 32 | 32
COc1ccc(N(C(=O)Nc2cccc(F)c2)C(C)c2nc3ccccc3c(=O)n2N2CCNCC2)c(OC)c1 (stereo not shown) [Compound 129] | > 32 | 32 µg/mL | > 32 | 32
COc1ccc(N(C(=O)Nc2ccc(F)cc2)C(C)c2nc3ccccc3c(=O)n2N2CCN(S(C)(=O)=O)CC2)c(OC)n1 (stereo not shown) [Compound 130] | > 32 | 2 µg/mL | > 32 | 32
COc1ccc(N(C(=O)Nc2ccc(F)cc2)C(C)c2nc3ccccc3c(=O)n2N2CCN(C(N)=O)CC2)c(OC)c1 (stereo not shown) [Compound 133] | > 32 | 8 µg/mL | > 32 | 16
COc1ccc(N(C(=O)Nc2ccc(F)cc2)C(C)c2nc3ccccc3c(=O)n2N2CCN(C(=O)NCCO)CC2)c(OC)n1 (stereo not shown) [Compound 134] | > 32 | 32 µg/mL | > 32 | 16
COCCNC(=O)N1CCN(n2c(C(C)N(C(=O)Nc3ccc(F)cc3)c3ccc(OC)nc3OC)nc3ccccc3c2=O)CC1 (stereo not shown) [Compound 135] | > 32 | 4 µg/mL | > 32 | 2
COc1ccc(N(C(=O)Nc2ccc(F)cc2)C(C)c2nc3ccccc3c(=O)n2N2CCN(C(=O)NCCO)CC2)c(OC)c1 (stereo not shown) [Compound 136] | > 32 | 8 µg/mL | > 32 | 2
COc1ccc(N(C(=O)Nc2ccc(F)cc2)C(C)c2nc3ccccc3c(=O)n2N2CCN(C(=O)CN3CCOCC3)CC2)c(OC)c1 (stereo not shown) [Compound 137] | > 32 | 1 µg/mL | > 32 | 0.5
COc1ccc(N(C(=O)Nc2ccc(F)cc2)C(C)c2nc3ccccc3c(=O)n2N2CCN(C(=O)CN3CCOCC3)CC2)c(OC)n1 (stereo not shown) [Compound 139] | > 32 | 2 µg/mL | > 32 | 1
COc1ccc(N(C(=O)Nc2ccc(F)cc2)C(C)c2nc3ccccc3c(=O)n2N2CCN(C(=O)Cn3ccnc3)CC2)c(OC)c1 (stereo not shown) [Compound 141] | > 32 | 16 µg/mL | > 32 | 4

From patent publication US20030220338A1, “Fungal efflux pump inhibitors” (priority 2001, published 2003)
